Laboratory results from patent US20100240746A1, “STEREOISOMERS OF TRICYCLODECAN-9-YL-XANTHOGENATE” (LUMAVITA AG, priority 2007, published 2010).

system: herpes simplex virus type 2; assay: HSV-2 inhibition in Calu-6 cells, plaque titration on RITA cells; assay type: cell-based; conditions: LD50 divided by IC50
Description: Calu-6 cells and RITA cells were grown in DMEM cell culture medium containing 10% fetal calf serum in CO2 incubator under 5% CO2 at 37° C. with 100% humidity.
For HSV-2 inhibition, Calu-6 cells were seeded in 96 well plates at a density of 3×10^6 cells per plate in the DMEM cell culture medium. The plates were incubated at 37° C. in the presence of 5% CO2 for 24 hr. The DMEM cell culture medium in the plates was removed and the cells were infected with Herpes simplex virus type-2 at 50 plaque forming units per well. After incubation at 37° C. for 60 min, test compounds in DMEM cell culture medium at a series of concentrations were added. The plates were incubated at 37° C. in the presence of 5% CO2 for 48 hr. The plates were frozen at −20° C. prior to further analysis. After thawing at room temperature, supernatants containing infectious virus particles were prepared by centrifuging the supernatant from each well at 18,000 g at 4° C. for 5 min. The supernatant was further diluted before assay.
RITA cells were seeded in 24 well Linbra plates at a density of 4×10^6 cells per plate in 2 mL of DMEM cell culture medium. The plates were incubated at 37° C. in the presence of 5% CO2 for 24 hr. After the removal of the cell culture medium, 0.1 mL of the diluted supernatants was added and the plates were incubated at 37 C for 1 hr. DMEM cell medium containing 10% fetal calf serum and 0.5% methyl cellulose was added and the plates were incubated at 37 for 48 hr. The plates were then washed with PBS, fixed with 3% formaldehyde solution containing 0.9% NaCl for 1 min, washed by water for 10 sec, and dried overnight. For detection, the plates were then stained with crystal violet solution for 5 min at room temperature, washed 5 times with water, and dried at room temperature overnight. The number of plaques was determined macroscopically. The number of plaques per well was then multiplied with the dilution factor. Dose response curves were obtained by plotting the number of plaques/0.1 mL against compound concentration. The therapeutic index was also calculated for each compound by dividing LD50 with IC50.

Row | Structure (SMILES) | Therapeutic Index
1 | S=C(S)OC1CC2CC1C1CCCC21 (stereo not shown) [Compound D609, tricyclodecan-9-yl-xanthogenate] | 3.5
2 | S=C(S)O[C@@H]1C[C@@H]2C[C@H]1[C@H]1CCC[C@@H]21 (racemic) [Racemic 1A, racemic O-exo/C-exo xanthic acid 1A] | 5.6
3 | S=C(S)OC1CC2CC1C1CCCC21 (single isomer, unassigned; enantiomer 1a) [(−)-Enantiomer 1A, (−)-O-exo/C-exo-tricyclo[5.2.1.0^2,6]-dec-9-yl-xanthic acid 1A] | 10.4
4 | S=C(S)OC1CC2CC1C1CCCC21 (single isomer, unassigned; enantiomer 1a) [(+)-Enantiomer 1A, (+)-O-exo/C-exo-tricyclo[5.2.1.0^2,6]-dec-9-yl-xanthic acid 1A] | 3.9
